Compound potency records, mixed from different reports. Data source: NIAID ChemDB in PubChem.

Shared fields: whole-cell or culture tests; species: Candida albicans

a–b is a range or a potency band. Conditions beyond the fields shown may differ between rows. Zones are inhibition diameters on agar. An empty or dashed field is not shown. A number after MIC or MFC names an inhibition level or a share of isolates. ECn: concentration that inhibits the pathogen or its effect by n%.

compound | measure | read by | conditions | dose | strain | mutations | value
CCO[C@@H]1C[C@@H]([C@H](C)[C@H]2CC[C@]3(C)C4=C(CC[C@@]23C)[C@]2(C)CC[C@H](O)C(C)(C)[C@H]2CC4)CC[C@@H]1C | zone | agar diffusion / agar | - | 0.2 µg/disc | MTCC 183 | - | 0 mm
O=[N+]([O-])c1cc(CSc2nnnn2C2CCCCC2)cc([N+](=O)[O-])c1 | EC80 | broth dilution | 24 h | - | ATCC 44859 | - | >500 µM
O=C(Cc1ccc(Cl)cc1Cl)NCCc1ccc2c(c1)OCO2 | MIC80 | broth dilution | - | - | Clinical isolate | Fluconazole-resistant | >64 µg/mL
CC(=O)OCCOCCn1nnc(Cn2cc(C(C)=O)c3ccccc32)n1 | MIC99 | agar | - | - | - | - | 150 µg/mL
COc1ccc2c(c1OC)C[N+]1(Cc3cccc(F)c3)CCc3cc4c(cc3C1C2)OCO4.[Br-] | MIC80 | broth dilution | - | - | Clinical isolate | Fluconazole-resistant | >64 µg/mL
C=C(C)C1CC=C(C)C(=O)C1 | MIC50 | broth dilution | - | - | ATCC 90028 | - | 8000 µg/mL
O=C(Cc1cccs1)NCCc1ccc2c(c1)OCO2 | MIC80 | broth dilution | - | - | Clinical isolate | Fluconazole-resistant | >64 µg/mL
O=[N+]([O-])c1cc(CSc2nnnn2-c2ccc(Cl)c(Cl)c2)cc([N+](=O)[O-])c1 | EC80 | broth dilution | 24 h | - | ATCC 44859 | - | >125 µM
CC(C)=CCC/C(C)=C/CO | MIC99.9 | broth dilution | - | - | ATCC 90028 | - | >8000 µg/mL
CCCCCCCCCCCCCCCCCCCO | MLC | broth dilution | - | - | ATCC 10231 | - | >200 µg/mL
Cn1c(=O)c2c(ncn2C)n(C)c1=O | MIC99.9 | broth dilution | - | - | ATCC 90028 | - | >8000 µg/mL
COc1cc(OC)c(OC)cc1C=O | MIC99.9 | broth dilution | - | - | ATCC 90028 | - | 8000 µg/mL
O=[N+]([O-])c1cc(CSc2nnnn2Cc2ccccc2)cc([N+](=O)[O-])c1 | EC80 | broth dilution | 24 h | - | ATCC 44859 | - | >500 µM
C[C@@H](c1nc(-c2ccc(C#N)cc2)cs1)[C@](O)(Cn1cncn1)c1ccc(F)cc1F | MIC90 | - | - | - | 4054 strains (fluconazole-susceptible) | - | 0.015 µg/mL
COc1ccc2c(Cc3ccc(F)cc3)c3[n+](cc2c1OC)CCc1cc2c(cc1-3)OCO2.[Br-] | MIC80 | broth dilution | - | - | Clinical isolate | Fluconazole-resistant | 64 µg/mL
CN(C/C=C/C#CC(C)(C)C)Cc1cccc2ccccc12 | MIC95 | - | - | - | - | - | 50 µg/mL
O=[N+]([O-])c1cc(CSc2cccc[n+]2[O-])cc([N+](=O)[O-])c1 | EC80 | broth dilution | 48 h | - | ATCC 44859 | - | >500 µM
CC(=O)c1cn(Cc2nnn(Cc3nnc(SC4OC(O)C(O)C(O)C4O)n3-c3ccc(Cl)cc3)n2)c2ccccc12 | MIC99 | agar | - | - | - | - | 110 µg/mL
C[C@@H]1O[C@@H](Oc2c(-c3ccc(O)c(O)c3)oc3cc(O)cc(O)c3c2=O)[C@H](O)[C@H](O)[C@H]1O | MLC | broth dilution | - | - | ATCC 10231 | - | 200 µg/mL
COc1ccc(Cc2c3[n+](cc4c(OC)c(OC)ccc24)CCc2cc4c(cc2-3)OCO4)cc1.[Br-] | MIC80 | broth dilution | - | - | Clinical isolate | Fluconazole-resistant | 32 µg/mL
C[C@@H]([C@H]1CC[C@H](C)C(=O)C1)[C@H]1CC[C@]2(C)C3=C(CC[C@@]12C)[C@]1(C)CC[C@H](O)C(C)(C)[C@H]1CC3 | zone | agar diffusion / agar | - | 1 µg/disc | MTCC 183 | - | 17 mm
Cc1ccc(C(C)C)c(O)c1 | EC50 | broth dilution / turbidity | - | - | ATCC 10231 | - | 0.51 µM
C[C@@H](c1nc(-c2ccc(C#N)cc2)cs1)[C@](O)(Cn1cnnc1)c1ccc(F)cc1F | MIC | - | - | - | Isogenic isolate 11 (25X) | - | ≤0.008 µg/mL
O=Cc1ccco1 | MIC99.9 | broth dilution | - | - | ATCC 90028 | - | 1000 µg/mL
Cc1c(N)nc([C@H](CC(N)=O)NC[C@H](N)C(N)=O)nc1C(=O)N[C@H](C(=O)N[C@H](C)[C@@H](O)[C@H](C)C(=O)N[C@H](C(=O)NCCc1nc(-c2nc(C(=O)NCCC[S+](C)C)cs2)cs1)[C@@H](C)O)C(O[C@@H]1O[C@@H](CO)[C@@H](O)[C@H](O)[C@@H]1O[C@H]1O[C@H](CO)[C@@H](O)[C@H](OC(N)=O)[C@@H]1O)c1cnc[nH]1 | MLC | - | - | - | Isolate 94-77 | - | 50 µg/mL
COc1ccccc1O | MIC50 | broth dilution | - | - | ATCC 90028 | - | 2000 µg/mL
CC(C)(C)c1ccc(C[N+]2=C(c3ccco3)c3cc4c(cc3CC2)OCO4)cc1.[Br-] | MIC80 | broth dilution | - | - | Clinical isolate | Fluconazole-resistant | >64 µg/mL
COc1cccc(C=O)c1 | MIC90 | agar diffusion / agar | - | - | 1131 | - | 600–900 µg/mL
C[C@@H]1[C@H](O)[C@@H](C)/C=C/C=C/CC/C=C/C=C/C=C/C=C/C(O[C@H]2O[C@H](C)[C@@H](O)[C@H](N)[C@@H]2O)CC2O[C@](O)(CC(O)C(O)CCC(O)CC(O)CC(O)CC(=O)O[C@H]1C)CC(O)C2C(=O)O | MFC100 | broth dilution | - | - | MD 37 | - | 64 µg/mL
O=c1c(O)c(-c2ccc(O)c(O)c2)oc2cc(O)cc(O)c12 | MLC | broth dilution | - | - | ATCC 10231 | - | 200 µg/mL
O=C(O)/C=C/c1ccccc1 | EC50 | broth dilution / turbidity | - | - | PYCC 3436 | - | 0.45 µM
O=C(O)c1cccc(-n2nnnc2SCc2cc([N+](=O)[O-])cc([N+](=O)[O-])c2)c1 | EC80 | broth dilution | 48 h | - | ATCC 44859 | - | >500 µM
C=CCc1ccc(O)c(-c2ccc(O)c(CC=C)c2)c1 | MIC | broth dilution | - | - | YL 345 | - | 128 µg/mL
O=C(Cc1ccc([N+](=O)[O-])cc1)NCCc1ccc2c(c1)OCO2 | MIC80 | broth dilution | - | - | Clinical isolate | Fluconazole-resistant | >64 µg/mL
CCC(C)n1ncn(-c2ccc(N3CCN(c4ccc(OC[C@H]5CO[C@](Cn6cncn6)(c6ccc(Cl)cc6Cl)O5)cc4)CC3)cc2)c1=O | MIC90 | - | - | - | 4054 strains (fluconazole-susceptible) | - | 0.12 µg/mL
C[C@H](Cc1ccc(O)c(O)c1)[C@@H](C)Cc1ccc(O)c(O)c1 | MIC80 | broth dilution | - | - | CCC 130-2000 | - | 250 µg/mL
CN(C/C=C/C#CC(C)(C)C)Cc1cccc2ccccc12 | MIC90 | - | - | - | CI_5 | - | 16 µg/mL
C=C(C)[C@@H]1CC[C@]2(C(=O)O)CC[C@]3(C)C(CCC4[C@@]5(C)CC[C@H](O)C(C)(C)C5CC[C@]43C)C12 | MIC90 | broth dilution | - | - | ATCC 90028 | - | 25.2 µg/mL
O=C(NCCc1ccc2c(c1)OCO2)c1ccc([N+](=O)[O-])cc1 | MIC80 | broth dilution | - | - | Clinical isolate | Fluconazole-resistant | >64 µg/mL
CC(C)C12CCC(C)(CC1)O2 | MIC99.9 | broth dilution | - | - | ATCC 90028 | - | >8000 µg/mL
C=C(C)[C@@H]1CC[C@]2(COC(=O)c3ccccc3NC(C)=O)CC[C@]3(C)C(CCC4[C@@]5(C)CC[C@H](O)C(C)(C)C5CC[C@]43C)C12 | MIC90 | broth dilution | - | - | ATCC 90028 | - | 10 µg/mL

For reference, 4 entries again:

compound | measure | read by | conditions | dose | strain | mutations | value
O=C(O)c1cccc(-n2nnnc2SCc2cc([N+](=O)[O-])cc([N+](=O)[O-])c2)c1 | EC80 | broth dilution | 48 h | - | ATCC 44859 | - | >500 µM
Cn1c(=O)c2c(ncn2C)n(C)c1=O | MIC99.9 | broth dilution | - | - | ATCC 90028 | - | >8000 µg/mL
O=c1c(O)c(-c2ccc(O)c(O)c2)oc2cc(O)cc(O)c12 | MLC | broth dilution | - | - | ATCC 10231 | - | 200 µg/mL
CC(C)C12CCC(C)(CC1)O2 | MIC99.9 | broth dilution | - | - | ATCC 90028 | - | >8000 µg/mL